Measured values from several laboratories, pooled; numbers as filed in NIAID ChemDB.

Common to all: target-level tests; organism: HIV-1; protein: Protease; method: HPLC; read-out: IC50

An empty or dashed field is not shown. Neighbouring rows are from separate reports. ICn: concentration for n% inhibition. a–b is a range or a potency band.

SMILES | setting | result
CC(C)(C)OC(=O)N[C@@H](Cc1ccccc1)[C@H](O)CNC[C@@H](O)[C@H](Cc1ccccc1)NC(=O)O[C@@H]1COC[C@H]1O | pH 5.5 | <10 µM
CC(C)(C)OC(=O)N[C@@H](Cc1ccccc1)[C@@H](O)C[C@@H](Cc1ccccc1)C(=O)NCc1ccccc1 |  | 0.12 µM
CC(C)(C)OC(=O)N1Cc2ccccc2C[C@H]1[C@H](O)CNC[C@@H](O)[C@@H]1Cc2ccccc2CN1C(=O)OC(C)(C)C | pH 5.5 | >10 µM
CC(C)(C)NC(=O)[C@@H]1CCCN1C(=O)C(=O)[C@H](Cc1ccccc1)NC(=O)[C@H](CC(N)=O)NC(=O)c1ccc2ccccc2n1 |  | 0.044 µM
COC(=O)CCCNC(=O)CCCCC(=O)N[C@H]1CC[C@@]2(C)C(CC[C@]3(C)C2CC=C2C4CC(C)(C)CC[C@]4(C(=O)OC)CC[C@]23C)C1(C)C |  | >20 µM
CC(C)C[C@H](NC(=O)[C@H](Cc1ccccc1)C[C@H](O)[C@H](Cc1ccccc1)NC(=O)OC(C)(C)C)C(=O)N[C@@H](Cc1ccccc1)C(N)=O |  | 0.0006 µM
C[C@@H]1CC[C@]2(C(=O)O)CC[C@]3(C)C(=CC[C@@H]4[C@@]5(C)C[C@@H](O)[C@H](O)C(C)(C)[C@@H]5CC[C@]43C)[C@@H]2[C@]1(C)O |  | ~17.9 µg/mL
CC(=O)O[C@H]1CC[C@]2(C)[C@H]3CC=C4[C@@H]5[C@@H](C)[C@H](C)CC[C@]5(C(=O)O)CC[C@@]4(C)[C@]3(C)CC[C@H]2C1(C)C |  | 13 µM
Cc1cn([C@H]2C[C@H](N=[N+]=[N-])[C@@H](COC(=O)CCCCC(=O)O/N=C3\CC[C@]4(C)[C@H]5CC=C6[C@@H]7CC(C)(C)CC[C@]7(C(=O)O)CC[C@@]6(C)[C@]5(C)CC[C@H]4C3(C)C)O2)c(=O)[nH]c1=O |  | 1.9 µM
C=C1OC(C(=O)O)C(/C(=C/C(=O)O)C(=O)OC2C3COC(=O)c4cc(O)c(O)c(O)c4-c4c(cc(O)c(O)c4O)C(=O)OC2C(O)C(OC(=O)c2cc(O)c(O)c(O)c2)O3)c2c1cc(O)c(O)c2O |  | 12.5 µM
COc1ccc(C[C@H](NC(=O)c2cccc(O)c2C)[C@H](O)C(=O)N2CSC(C)(C)[C@H]2C(=O)NCc2ccccc2C)cc1 |  | <0.05 µg/mL
CC(C)(C)COC(=O)N[C@@H](Cc1ccccc1)[C@H](O)CNC[C@@H](O)[C@H](Cc1ccccc1)NC(=O)OCC(C)(C)C | pH 5.5 | 10 µM
Cc1cn([C@H]2C[C@H](N=[N+]=[N-])[C@@H](COC(=O)CCCCC(=O)N[C@@H]3CC[C@]4(C)[C@H]5CC=C6[C@@H]7CC(C)(C)CC[C@]7(C(=O)O)CC[C@@]6(C)[C@]5(C)CC[C@H]4C3(C)C)O2)c(=O)[nH]c1=O |  | 1.9 µM
CC[C@H](C)[C@H](NC(=O)[C@H](Cc1ccccc1)C[C@H](O)[C@H](Cc1ccccc1)NC(=O)OC(C)(C)C)C(=O)NCc1nc2ccccc2[nH]1 |  | 0.0001–0.01 µM
Cc1ccccc1CNC(=O)[C@H]1N(C(=O)[C@@H](O)[C@H](Cc2ccc3c(c2)OCO3)NC(=O)c2cccc(O)c2C)CSC1(C)C |  | <0.05 µg/mL
CC(C)CN(C[C@@H](O)[C@H](Cc1ccccc1)NC(=O)[C@H](CC(N)=O)NC(=O)c1ccc2ccccc2n1)C(=O)NC(C)(C)C |  | 0.004 µM
COC(=O)[C@]12CCC(C)(C)CC1C1=CCC3[C@@]4(C)CC[C@H](N)C(C)(C)C4CC[C@@]3(C)[C@]1(C)CC2 |  | >20 µM
CN(C(=O)OC(C)(C)C)[C@@H](Cc1ccccc1)[C@H](O)CNC[C@@H](O)[C@H](Cc1ccccc1)NC(=O)OC(C)(C)C | pH 5.5 | 10 µM
CC(C)[C@H](NC(=O)[C@H](Cc1ccccc1)C[C@H](O)[C@H](Cc1ccccc1)NC(=O)OC(C)(C)C)C(=O)NCC(O)CO |  | 0.0001–0.01 µM
Cc1ccccc1CNC(=O)[C@H]1N(C(=O)[C@@H](O)[C@H](Cc2ccc3c(c2)OCO3)NC(=O)c2cccc(N)c2Cl)CSC1(C)C |  | <0.05 µg/mL
COC(=O)[C@]12CCC(C)(C)C[C@H]1C1=CC[C@@H]3[C@@]4(C)CC[C@H](NC(=O)CCCCC(=O)OC[C@H]5O[C@@H](n6cc(C)c(=O)[nH]c6=O)C[C@@H]5N=[N+]=[N-])C(C)(C)[C@@H]4CC[C@@]3(C)[C@]1(C)CC2 |  | 20 µM
COC(=O)[C@]12CCC(C)(C)CC1C1=CCC3[C@@]4(C)CC[C@@H](N)C(C)(C)C4CC[C@@]3(C)[C@]1(C)CC2 |  | >20 µM
COC(=O)CCCC(=O)O[C@H]1CC[C@@]2(C)C(CC[C@]3(C)C2CC=C2C4[C@@H](C)[C@H](C)CC[C@]4(C(=O)OC)CC[C@]23C)C1(C)C |  | >50 µM
C[C@H]1[C@H](C)CC[C@]2(C(=O)O)CC[C@]3(C)C(=CC[C@@H]4[C@@]5(C)CC[C@H](O)C(C)(C)[C@@H]5CC[C@]43C)[C@H]12 |  | <17.9 µg/mL
CC(C)(C)NC(=O)[C@@H]1CCCN1C(=O)C(=O)[C@H](Cc1ccccc1)NC(=O)[C@H](CC(N)=O)NC(=O)OCc1ccccc1 |  | 0.064 µM
CCOc1ccc(C[C@H](NC(=O)c2cccc(N)c2Cl)[C@H](O)C(=O)N2CSC(C)(C)[C@H]2C(=O)NCc2ccccc2C)cc1 |  | <0.05 µg/mL
C=C(C)[C@@H]1CC[C@]2(C(=O)O)CC[C@]3(C)[C@H](CC[C@@H]4[C@@]5(C)CC[C@H](OC(=O)CCCC(=O)O)C(C)(C)[C@@H]5CC[C@]43C)[C@@H]12 |  | 4 µM
Cc1cn([C@H]2C[C@H](N=[N+]=[N-])[C@@H](COC(=O)CCCCC(=O)N[C@@H]3CC[C@]4(C)[C@H]5CC=C6[C@@H]7CC(C)(C)CC[C@]7(C(=O)O)CC[C@@]6(C)[C@]5(C)CC[C@H]4C3(C)C)O2)c(=O)[nH]c1=O |  | 1.9 µM
CC(C)(C)OC(=O)N[C@@H](Cc1ccccc1)[C@@H](O)C[C@@H](Cc1ccc(C(C)(C)C)cc1)C(=O)N[C@H]1c2ccccc2C[C@H]1O |  | 0.0001–0.01 µM
Cc1ccccc1CNC(=O)[C@H]1N(C(=O)[C@@H](O)[C@H](Cc2ccc(C(C)C)cc2)NC(=O)c2cccc(O)c2C)CSC1(C)C |  | <0.05 µg/mL
CC(C)(C)OC(=O)N[C@@H](Cc1ccccc1)[C@@H](O)C[C@@H](C/C=C/c1ccccc1)C(=O)N[C@H]1c2ccccc2[C@@H](O)[C@H]1O |  | 0.0001–0.01 µM
COC(=O)NC(C(=O)N[C@@H](Cc1ccccc1)[C@H](O)CNC[C@@H](O)[C@H](Cc1ccccc1)NC(=O)OC(C)(C)C)C(C)(C)C | pH 5.5 | >10 µM
COC(=O)[C@]12CCC(C)(C)C[C@H]1C1=CC[C@@H]3[C@@]4(C)CC[C@@H](NC(=O)CCCCC(=O)OC[C@H]5O[C@@H](n6cc(C)c(=O)[nH]c6=O)C[C@@H]5N=[N+]=[N-])C(C)(C)[C@@H]4CC[C@@]3(C)[C@]1(C)CC2 |  | 8 µM
CC(C)(C)OC(=O)N[C@@H](Cc1ccccc1)[C@H](O)CNC[C@@H](O)[C@H](Cc1ccccc1)NC(=O)C(C)(C)O | pH 5.5 | <10 µM
COC(=O)[C@]12CCC(C)(C)C[C@H]1C1=CC[C@@H]3[C@@]4(C)CC[C@H](NC(=O)CCCCC(=O)Oc5c(OC)ccc6c5[C@@]57CCC(C)[C@@H](C6)C5=C(OC)C(OC(C)=O)C(OC(C)=O)C7)C(C)(C)[C@@H]4CC[C@@]3(C)[C@]1(C)CC2 |  | >100 µM
CC(C)(C)OC(=O)N[C@@H](Cc1ccc(O)cc1)[C@@H](O)C[C@@H](Cc1ccccc1)C(=O)N[C@H]1c2ccccc2C[C@H]1O |  | 0.0001–0.01 µM
CC(C)(C)N[C@@H](Cc1ccccc1)C(=O)N[C@@H](Cc1ccccc1)[C@H](O)CNC[C@@H](O)[C@H](Cc1ccccc1)NC(=O)[C@H](Cc1ccccc1)NC(C)(C)C | pH 5.5 | >10 µM
COC(=O)[C@]12CCC(C)(C)C[C@H]1C1=CC[C@@H]3[C@@]4(C)CC[C@H](OC(=O)CCCCC(=O)OC[C@H]5O[C@@H](n6cc(C)c(=O)[nH]c6=O)C[C@@H]5N=[N+]=[N-])C(C)(C)[C@@H]4CC[C@@]3(C)[C@]1(C)CC2 |  | 4 µM
C[C@@H]1CC[C@]2(C(=O)O)CC[C@]3(C)C(=CC[C@@H]4[C@@]5(C)CC[C@@H](O)C(C)(C)[C@@H]5CC[C@]43C)[C@@H]2[C@]1(C)O |  | >17.9 µg/mL

The last 5 rows once more:

SMILES,setting,result
COC(=O)[C@]12CCC(C)(C)C[C@H]1C1=CC[C@@H]3[C@@]4(C)CC[C@H](NC(=O)CCCCC(=O)Oc5c(OC)ccc6c5[C@@]57CCC(C)[C@@H](C6)C5=C(OC)C(OC(C)=O)C(OC(C)=O)C7)C(C)(C)[C@@H]4CC[C@@]3(C)[C@]1(C)CC2,,>100 µM
CC(C)(C)OC(=O)N[C@@H](Cc1ccc(O)cc1)[C@@H](O)C[C@@H](Cc1ccccc1)C(=O)N[C@H]1c2ccccc2C[C@H]1O,,0.0001–0.01 µM
CC(C)(C)N[C@@H](Cc1ccccc1)C(=O)N[C@@H](Cc1ccccc1)[C@H](O)CNC[C@@H](O)[C@H](Cc1ccccc1)NC(=O)[C@H](Cc1ccccc1)NC(C)(C)C,pH 5.5,>10 µM
COC(=O)[C@]12CCC(C)(C)C[C@H]1C1=CC[C@@H]3[C@@]4(C)CC[C@H](OC(=O)CCCCC(=O)OC[C@H]5O[C@@H](n6cc(C)c(=O)[nH]c6=O)C[C@@H]5N=[N+]=[N-])C(C)(C)[C@@H]4CC[C@@]3(C)[C@]1(C)CC2,,4 µM
C[C@@H]1CC[C@]2(C(=O)O)CC[C@]3(C)C(=CC[C@@H]4[C@@]5(C)CC[C@@H](O)C(C)(C)[C@@H]5CC[C@]43C)[C@@H]2[C@]1(C)O,,>17.9 µg/mL